Data source: PubChem BioAssay AID624099 (ICCB-Longwood, 2012)

- Assay: 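Human genes that papillomavirus E2 requires to repress the HPV18 LCR promoter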 (primary screen)
- Cells: human C33A cervical carcinoma cells (HPV-negative) stably expressing BPV1 E2 and an HPV18 LCR luciferase reporter
- Reagent: siRNA pool against human genes, 40 nM
- Time to read-out: 72 h
- Measured: 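HPV18 LCR reporter light per well, converted to plate-wise z-scores that exclude control wells, and averaged over triplicate plates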
- Reading the numbers: mean z-score and z-score: higher = stronger reporter signal, weaker E2 silencing
- Call rule: 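Hit if mean z-score reaches 2 and two or more of three replicate z-scores also reach 2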
The whole screen tested about 21,000 reagents; below is a random part of them. 497 of all reagents (2.4%) count as active. 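Higher z means weaker E2 silencing; only reporter increases were scored, and knock-downs that hurt cell survival may mask genuine repressor factors.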

With OR2T11, how do the results read?
mean z-score: -1.5; z-score, replicate A: -1.75; z-score, replicate B: -1.23; z-score, replicate C: -1.51; call: inactive

For PNLDC1, what does the deposit list?
mean z-score: 0.42; z-score, replicate A: 0.07; z-score, replicate B: 0.52; z-score, replicate C: 0.66; call: inactive

Which result is listed for CFAP97D1?
mean z-score: -0.84; z-score, replicate A: -0.81; z-score, replicate B: -0.8; z-score, replicate C: -0.92; call: inactive

What is on record for THBS2?
mean z-score: 1.37; z-score, replicate A: 1.39; z-score, replicate B: 1.25; z-score, replicate C: 1.47; call: inactive

How did the screen score NMT1?
mean z-score: 0.72; z-score, replicate A: 0.95; z-score, replicate B: 0.43; z-score, replicate C: 0.79; call: inactive

Which result is listed for ZFP2?
mean z-score: -0.08; z-score, replicate A: -0.05; z-score, replicate B: -0.04; z-score, replicate C: -0.16; call: inactive

For MLLT6, what was measured?
mean z-score: -1.14; z-score, replicate A: -1.08; z-score, replicate B: -1.35; z-score, replicate C: -0.98; call: inactive

With PRKAR2A, what does the deposit list?
mean z-score: -1.51; z-score, replicate A: -1.48; z-score, replicate B: -1.4; z-score, replicate C: -1.66; call: inactive

With KRCC1, what was measured?
mean z-score: -0.6; z-score, replicate A: -0.22; z-score, replicate B: -0.78; z-score, replicate C: -0.8; call: inactive

What is on record for DUX1?
mean z-score: -0.48; z-score, replicate A: -0.48; z-score, replicate C: -0.49; call: inactive

For LTC4S, what does the deposit list?
mean z-score: -0.59; z-score, replicate A: -0.45; z-score, replicate B: -0.69; z-score, replicate C: -0.63; call: inactive

What did the screen give for LIMA1?
mean z-score: -0.75; z-score, replicate A: -0.42; z-score, replicate B: -0.97; z-score, replicate C: -0.87; call: inactive

What is on record for LOC388173 (retired record)?
mean z-score: 0.14; z-score, replicate A: 0.14; z-score, replicate B: 0.11; z-score, replicate C: 0.17; call: inactive

With BMP8B, what does the deposit list?
mean z-score: -1.27; z-score, replicate A: -1.23; z-score, replicate B: -1.22; z-score, replicate C: -1.36; call: inactive

With CTTN, what does the deposit list?
mean z-score: -1; z-score, replicate A: -1; z-score, replicate B: -1.16; z-score, replicate C: -0.83; call: inactive

With MDM2, how do the results read?
mean z-score: -0.68; z-score, replicate A: -0.72; z-score, replicate B: -0.83; z-score, replicate C: -0.47; call: inactive

With NIPAL1, how do the results read?
mean z-score: -0.93; z-score, replicate A: -1.14; z-score, replicate B: -0.73; z-score, replicate C: -0.91; call: inactive

For EEF1E1, what does the deposit list?
mean z-score: 0.89; z-score, replicate A: 1.08; z-score, replicate B: 0.76; z-score, replicate C: 0.84; call: inactive

For C19orf33, how do the results read?
mean z-score: 0.73; z-score, replicate A: -0.14; z-score, replicate B: 0.74; z-score, replicate C: 1.59; call: inactive

What did the screen give for NEO1?
mean z-score: 0.25; z-score, replicate A: 0.49; z-score, replicate B: 0.45; z-score, replicate C: -0.18; call: inactive

How did the screen score EPB41L4A?
mean z-score: 0.26; z-score, replicate A: 0.27; z-score, replicate B: 0.15; z-score, replicate C: 0.37; call: inactive

For SPEF1, what was measured?
mean z-score: 0.93; z-score, replicate A: 0.8; z-score, replicate B: 0.93; z-score, replicate C: 1.05; call: inactive

2 entries already listed, arranged by “mean z-score”, lowest first:
CTTN — mean z-score: -1; z-score, replicate A: -1; z-score, replicate B: -1.16; z-score, replicate C: -0.83; call: inactive
MDM2 — mean z-score: -0.68; z-score, replicate A: -0.72; z-score, replicate B: -0.83; z-score, replicate C: -0.47; call: inactive
